Several values for one entry are separate records, joined by “and”; a condition that tells them apart may be missing. Identical values can stand only once.
What was measured:
[1] = molecular target: SARS-COV-2-S RBD extracellular domain expressed with a C-terminal myc-myc-hexahistidine (SARS-COV-2 RBD-MMH) (SARS-CoV-2)
[2] = molecular target: SARS-CoV-2-S RBD extracellular domain expressed with a C-terminal myc-myc-hexahistidine tag (SARS-COV-2 RBD-MMH) (SARS-CoV-2)

Substance: Isotype Control (antibody)
- 90 nM RBD.mmh Bound (RU) [1]: 4 RU and 9 RU

Substance: mAb10933
- 90 nM RBD · mmh Bound (RU) [2]: 119 RU

From patent publication US20220356230A1
